# Primary screen of a compound library

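Growth of Mycobacterium tuberculosis over 4 days (cholesterol / DPPC medium with tyloxapol); the read-out is not stated. Concentration: 500 µM. Direction is inferred from retests: higher values go with more growth inhibition. About 18,000 compounds were tested under these conditions; 5% (about 900) showed 50% or more at least once.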

Each number is a percent effect as filed.
The record does not define 0% and 100%; most values in the screen are far below 50% and negative numbers occur (in some assays of this library far below -100).
The entries come from a sample that favours strong results.

| SMILES | effect |
|---|---|
| `CN(CCC(O)c1ccccc1)C(=O)c1cc(Cl)c[nH]1` (centres unmarked) | 90.3 |
| `CC(C)CC(=O)N1CCNCC1` | -9.792 |
| `COc1ccc(C(N)c2ccc(OC)cc2OC)cc1` (centres unmarked) | 53.84 |
| `COCCOc1ccc(CNC(=O)c2ccoc2)cn1` | -3.569 |
| `CSCc1cc(F)ccc1CNC(=O)[C@H]1CCC(=O)N1` | 9.953 |
| `CC(NC(=O)NCCn1ccnc1)c1ccccn1` (centres unmarked) | -3.412 |
| `CC(C)c1cc(C(=O)N2CC(c3ccccn3)C2)no1` | 69.87 |
| `Cc1n[nH]c(SCC(=O)N[C@@H]2CCNC[C@H]2O)n1` | 6.817 |
| `Cc1cc(C(=O)NCCCN(C)CC(F)(F)F)no1` | 50.19 |
| `COCC(C)C(=O)Nc1ccc2[nH]nnc2c1` (centres unmarked) | -10.27 |
| `O=C(CN1CCN(c2ccccn2)CC1)NC1CC1` | 2.272 |
| `CS(=O)(=O)N1CCCC1c1cccc(F)c1` (centres unmarked) | -0.18 |
| `CN1CCCN(C(=O)NC2CCCC2)CC1` | 15.27 |
| `O=C(CSCCO)Nc1ccccc1F` | 8.167 |
| `COCCNc1nnc(SCc2ccc(Br)cn2)s1` | 57.75 |
| `COCC(O)CN(C)Cc1c(C)cccc1C` (centres unmarked) | 21.49 |
| `NCC(c1cccs1)N1CCCC1` (centres unmarked) | 1.651 |
| `COCCOc1cc(C)ccc1CN` | 27.02 |
| `CCC1(CC)CCCN(C(=O)CS(=O)(=O)CC)CC1` | 86.34 |
| `O=C(NCCC1=CCCCC1)NC1CCS(=O)(=O)C1` (centres unmarked) | 4.535 |
| `NC(=O)c1ccc2c(n1)NCCC2` | 3.532 |
| `COc1cccc(CO)n1` | 11.1 |
| `Cc1nc(C)c(C(=O)NCCN2CCCCC2)o1` | 2.17 |
| `COCCNC1CCOC1` (centres unmarked) | -5.284 |
| `CCOc1cc(C(=O)NCCCOC(C)C)ccn1` | 72.62 |
| `NC(=O)C1CCN(C(=O)CCc2ccc(Cl)cc2Cl)C1` (centres unmarked) | 62.11 |
| `O=C(c1cnccn1)N1CCCC1c1ccsc1` (centres unmarked) | -2.983 |
| `CN(Cc1ccc(N)nc1)c1ncc(Cl)cn1` | 80.64 |
| `CCC(=O)N1CCN(c2ccc(C(C)=O)cc2F)CC1` | 19.37 |
| `CN1CCc2nc(NC(=O)c3cncc(Br)c3)sc2C1` | -4.042 |
| `CC(=O)c1c[nH]c(C(=O)NC2CCN(C(C)=O)CC2)c1` | -10.4 |
| `CN(C)S(=O)(=O)c1ccc2c(c1)NCC2` | 6.801 |
| `CN(C)CCN(CCN(C)C)C(=O)NC1CC1` | 1.225 |
| `Cc1cc(C)nc(N2CCN(S(C)(=O)=O)CC2)n1` | -19.93 |
| `CSCc1ccc(C(=O)NCCc2ncnn2C)o1` | 9.263 |
| `O=C(Nc1cccc(Cl)c1)N1CCNCC1` | 12.36 |
| `COc1cc(CCN)ccc1C` | 114.3 |
| `NC(=O)c1cnc(NC(=O)CCC2CCCO2)s1` (centres unmarked) | 3.173 |
| `NCC1CCN(C(=O)CCc2ccc(F)cc2)CC1` | 15.08 |
| `C[C@H](N)c1ccc(Cl)s1` | 23.87 |
| `Cc1cnc(C(=O)c2ncc(C)[nH]2)[nH]1` | 37.67 |
| `Cc1cccc(Cl)c1OCCN` | 29.28 |
| `Nc1nc(-c2ccco2)nn1C(=O)c1cccs1` | -4.8 |
| `Nc1n[nH]c(SCc2cccnc2)n1` | -3.995 |
| `CN1N=C(C(=O)NCc2csc(Br)c2)CCC1=O` | 74.24 |
| `CN(CCN1CCCC1=O)C(=O)C1CCCO1` (centres unmarked) | 23.2 |
| `CN(C)c1nc(-c2ccc3c(c2)CCC(=O)N3)cs1` | 56.62 |
| `C=C(C)CN1CCN(c2nccs2)CC1` | 12.41 |
| `CN(C)C(=O)NCCNc1nc(-c2ccccc2)ns1` | -12.06 |
| `CNCCc1nc2cc(OC)ccc2[nH]1` | 31.35 |
| `CC(=O)Cn1cnc2sc(C)c(C)c2c1=O` | 6.193 |
| `CNC(CO)c1cccc(Cl)c1Cl` (centres unmarked) | 24.26 |
| `CC1(O)CN(S(=O)(=O)CCCC#N)C1` | 0.05113 |
| `CCC1CN(C(=O)c2cnc(C)cn2)CCO1` (centres unmarked) | 5.942 |
| `NCc1ccc2sccc2c1` | 21.72 |
| `c1cncc(CN2CCC(OC3CCOCC3)CC2)c1` | -15.83 |
| `CCCN1CC(NC(=O)c2cc(C(C)C)on2)CC1=O` (centres unmarked) | 3.003 |
| `CC1=NN(C(=O)Cn2cc(C)cn2)C(O)(C(F)F)C1` (centres unmarked) | 21.91 |
| `Cc1cc(C)nc(N2CCOCC2C(N)=O)n1` (centres unmarked) | 1.626 |
| `COCc1nn(Cc2cccc3cccnc23)c(=O)o1` | 72.34 |
| `CC(Nc1ccc(C#N)cn1)c1ccc2c(c1)OCO2` (centres unmarked) | 78.7 |
| `CN1CCN(C(=O)COc2ccc(F)cc2F)CC1` | 18.99 |

The first 4 entries again:

- CN(CCC(O)c1ccccc1)C(=O)c1cc(Cl)c[nH]1 (centres unmarked) | 90.3%
- CC(C)CC(=O)N1CCNCC1 | -9.792%
- COc1ccc(C(N)c2ccc(OC)cc2OC)cc1 (centres unmarked) | 53.84%
- COCCOc1ccc(CNC(=O)c2ccoc2)cn1 | -3.569%

Measurements from “University of Dundee, Small-Polar-MMV Screening Library” (2021), ChEMBL document CHEMBL3988442.